The values below are quoted from earlier work in patent US5565200A, “Pharmaceutical preparations derived from korean mistletoe” (priority 1995, dated 1996).

The data set deals with AIDS. The note with it: purified IL-2, cited from earlier work.

Turning to “IL-2: Purified IL-2 which stimulates the production of CD4 cells”, the “CD4 count of AIDS patients” value (AIDS patients) is “improve CD4 count of AIDS patients”. Further, the side effects result (symptoms similar to acute influenza) is on record as “serious side effects which have symptoms similar to acute influenza”.
